Results of unrelated studies side by side (data: NIAID ChemDB).

Shared fields: growth or infection tests; species: Candida albicans; read by: agar diffusion; endpoint: zone

Blank or dashed fields: not listed here. Rows are shuffled and stem from different studies. Zone: diameter of growth inhibition.

structure,dose,strain,value
Cn1c(=O)c(-c2[nH][nH]c(=O)c2/C=N/c2ncccn2)c(O)c2ccccc21,1 mg/mL,ATCC 10231,7 mm
O=c1oc2ccccc2cc1-c1nnc(/N=C/c2ccc(Cl)cc2)o1,100 µg/mL,ATCC 10231,15 mm
O=[N+]([O-])c1ccc(/C=C/C(=NCCCn2ccnc2)c2ccccc2O)cc1,100 µg/mL,-,20 mm
COc1ccc(-c2nc(S(C)(=O)=O)nc(N)c2C#N)cc1,100 µg/mL,MTCC 227,20 mm
COc1ccccc1/C=N/c1nnc(-c2cc3ccccc3oc2=O)o1,100 µg/mL,ATCC 10231,13 mm
O=C1N/C(=N/N=C/c2c(Cl)cccc2Cl)S/C1=C/c1ccc([N+](=O)[O-])cc1,200 µg,ATCC 10231,12 mm
CC(=O)N1CCN(c2ccc(OC[C@H]3CO[C@](Cn4ccnc4)(c4ccc(Cl)cc4Cl)O3)cc2)CC1,20 mg/mL,C-3,12 mm
Cn1c(=O)c(-c2[nH][nH]c(=O)c2C=Nc2ccc(N)cc2)c(O)c2ccccc21,1 mg/mL,ATCC 10231,17 mm
C\C1=C/C=C/C=C/C=C/C=C/CC2CC(O)CC(O)(CC(O)CC(O)CC(O)CC(O)CC(O)CC(O)CC(O)/C=C/C(C)C(C(C)C)OC1=O)O2,100 µg/disc,-,15 mm
Cc1ccc(NC(=O)c2ccc(CN3CCN(C)CC3)cc2)cc1Nc1nccc(-c2cccnc2)n1,100 µM,-,21 mm
C/C=C/C1=CC2=CC(=O)[C@](C)(OC(=O)c3c(OC)cc(O)c(O)c3C)C(=O)C2=CO1,0.1 µg/disc,ATCC 64548,0 mm
NNC(=O)c1cc2ccccc2oc1=O,100 µg/mL,ATCC 10231,8 mm
Cn1c(=O)c(-c2[nH][nH]c(=O)c2N=Nc2cccc(Cl)c2)c(O)c2ccccc21,1 mg/mL,ATCC 10231,14 mm
CS(=O)(=O)c1nc(N)c(C#N)c(-c2ccc(Cl)cc2)n1,25 µg/mL,MTCC 227,17 mm
CC(=O)N1CCN(c2ccc(OC[C@H]3CO[C@](Cn4ccnc4)(c4ccc(Cl)cc4Cl)O3)cc2)CC1,10 mg/disc,-,11.5 mm
O=C1CS/C(=N/N=C/c2c(Cl)cccc2Cl)N1,200 µg,ATCC 10231,6 mm
CC[C@@H](O)C[C@H](C)C1O[C@]1(C)/C=C/C(=O)N[C@H](CO)[C@@H](C)CC,16000 µg/mL,-,12.1 mm
CC1=C(Cl)C(O)=CC(=O)C12Oc1cc(O)c(Cl)c(C)c1C2=O,25 µg/mL,MTCC 227,23 mm
Cc1ccc(N=c2cc(N)nc3sc(S(N)(=O)=O)nn23)cc1,5000 µg/mL,-,6 mm
CS(=O)(=O)c1nc(N)c(C#N)c(-c2ccc(O)cc2)n1,25 µg/mL,MTCC 227,17 mm
Cc1c(O)cc2c(c1O)C(=O)c1ccccc1C2=O,13.3 µg/disc,-,0 mm
CSC1=NC(c2ccc(Cl)cc2)C(C#N)=C(N)N1,25 µg/mL,MTCC 227,17 mm
COC1=CC(=O)C[C@@H](C)[C@]12Oc1c(Cl)c(OC)cc(OC)c1C2=O,10 µg/mL,-,20 mm
COc1ccc(-c2cc(-c3cc4c(cc3OC)OC(C)(C)CC4)nc(N)n2)cc1,100 µg/mL,-,10 mm
O=C1N/C(=N/N=C/c2csc(-c3ccccc3)n2)S/C1=C/c1ccc(O)cc1,200 µg,ATCC 10231,0 mm
CC1(C)CCC2=C(C1=O)C(c1cccc(C3C4=C(CCC(C)(C)C4=O)OC4=C3C(=O)C(C)(C)CC4)c1)C1=C(CCC(C)(C)C1=O)O2,40 µg/disc,ATCC 10231,9 mm
Nc1cc(=Nc2ccc(Br)cc2)n2nc(S(N)(=O)=O)sc2n1,5000 µg/mL,-,4 mm
C[C@H]1[C@H](O)[C@@H](C)/C=C/C=C/C=C/C=C/C=C/C=C/C=C/[C@H](O[C@@H]2O[C@H](C)[C@@H](O)[C@H](N)[C@@H]2O)C[C@@H]2O[C@](O)(C[C@@H](O)C[C@@H](O)CC[C@H](O)[C@@H](O)C[C@@H](O)CC(=O)O[C@H]1C)C[C@H](O)[C@H]2C(=O)O,10 µg/mL,-,11 mm
C[C@H]1[C@H](O)[C@@H](C)/C=C/C=C/C=C/C=C/C=C/C=C/C=C/[C@H](O[C@@H]2O[C@H](C)[C@@H](O)[C@H](N)[C@@H]2O)C[C@@H]2O[C@](O)(C[C@@H](O)C[C@@H](O)CC[C@H](O)[C@@H](O)C[C@@H](O)CC(=O)O[C@H]1C)C[C@H](O)[C@H]2C(=O)O,100 µg,ATCC 10231,17 mm
Cc1ccc(/C=C/C(=NCCCn2ccnc2)c2ccccc2O)cc1.[Cl][Cu],100 µg/mL,-,21 mm
O=C1CCCC2=C1C(c1cccc(C3C4=C(CCCC4=O)OC4=C3C(=O)CCC4)c1)C1=C(CCCC1=O)O2,40 µg/disc,ATCC 10231,7 mm
COc1cc2c(cc1-c1cc(-c3ccc(C#N)cc3)nc(N)n1)CCC(C)(C)O2,100 µg/mL,-,15 mm
Nc1ccc(Nc2ccc(F)cc2)c2c(=O)[nH]cnc12,1000 µg/mL,ATCC 10231,0 mm
CS(=O)(=O)c1nc(N)c(C#N)c(/C=C\c2ccccc2)n1,100 µg/mL,MTCC 227,19 mm
Clc1ccc(COC(Cn2ccnc2)c2ccc(Cl)cc2Cl)c(Cl)c1,30 µg/mL,-,24 mm
Cc1ccc(/C=C/C(=NCCCn2ccnc2)c2ccccc2O)cc1.[Cl][Ni],100 µg/mL,-,19 mm
COc1c(N2CC3CCCNC3C2)c(F)cc2c(=O)c(C(=O)[O-])cn(C3CC3)c12.COc1c(N2CC3CCCNC3C2)c(F)cc2c(=O)c(C(=O)[O-])cn(C3CC3)c12.[Cl][Cu+].[Cl][Cu+].c1c[nH]cn1.c1c[nH]cn1,100 µM,-,10 mm
Cc1ccc(NC2=C(C#N)C(c3ccccc3)N=C3SC(S(N)(=O)=O)=NN32)cc1,5000 µg/mL,-,4 mm
CSC1=NC(c2ccccc2[N+](=O)[O-])C(C#N)=C(N)N1,25 µg/mL,MTCC 227,17 mm
COc1ccc(C2CC(=O)C3=C(C2)OC2=C(C(=O)CC(c4ccc(OC)c(OC)c4)C2)C3c2cccc(C3C4=C(CC(c5ccc(OC)c(OC)c5)CC4=O)OC4=C3C(=O)CC(c3ccc(OC)c(OC)c3)C4)c2)cc1OC,40 µg/disc,ATCC 10231,7 mm
Nc1ccccc1Nc1ccc([N+](=O)[O-])c2nc[nH]c(=O)c12,1000 µg/mL,ATCC 10231,0 mm
COc1ccccc1N1CCN(CC(=O)N2c3ccccc3Sc3ccccc32)CC1,0.1 µg/mL,-,0 mm
O=C1N/C(=N/N=C/c2c(Cl)cccc2Cl)S/C1=C/c1coc2c(Br)cc(Br)cc2c1=O,200 µg,ATCC 10231,0 mm
O=[N+]([O-])c1ccc(/C=C/C(=NCCCn2ccnc2)c2ccccc2O)cc1.[Cl][Cu],100 µg/mL,-,23 mm
COc1cc2c(cc1-c1cc(-c3ccccc3)nc(N)n1)CCC(C)(C)O2,100 µg/mL,-,11 mm
CCOCc1c(O)cc2c(c1O)C(=O)c1ccccc1C2=O,13.3 µg/disc,-,0 mm
COc1ccc(/C=c2\c(=O)[nH][nH]\c2=C2/C(=O)c3ccccc3N(C)C2=O)cc1OC,1 mg/mL,ATCC 10231,13 mm
CC1/C(=N\O)C(=O)NCCCOc2c(O)cc(c(Br)c2Br)C/C2=N\O[C@@H]3[C@H](Br)[C@@]4(C=C[C@@]3(O)C/C(=N\O)C(=O)NC[C@@H](O)[C@H](O)[C@H](O)CNC2=O)Oc2cc1cc(Br)c2O4,10 µg/disc,-,8 mm
COC(=O)c1cc(=O)nc2sc3cc(C)ccc3n12,5000 µg/mL,-,6 mm
Cc1ccc(Nc2ccc(N)c3nc[nH]c(=O)c23)cc1C,1000 µg/mL,ATCC 10231,0 mm
Cc1ccc(Oc2ccc(-c3nc4ccccc4c4cc5ccccc5n34)cc2)cc1,1000 µg/mL,-,9 mm
CC1=Cc2c(CO)c(O)c(C)c(O)c2CO1,100 µM,ATCC 90028,21 mm
O=c1oc2ccccc2cc1-c1nnc(/N=C/c2ccccc2Cl)o1,100 µg/mL,ATCC 10231,13 mm
COc1cc2c(c(O)c1C)C(=O)c1c(ccc(OC)c1O)C2=O,13.3 µg/disc,-,7.5 mm
C[C@@H]1[C@H](O)[C@@H](C)/C=C/C=C/C=C/C=C/C=C/C=C/C=C/[C@H](O[C@@H]2O[C@H](C)[C@@H](O)[C@H](N)[C@@H]2O)C[C@@H]2O[C@](O)(C[C@@H](O)C[C@@H](O)[C@H](O)CC[C@@H](O)C[C@@H](O)CC(=O)O[C@H]1C)C[C@H](O)[C@H]2C(=O)O,10 µg,-,18.71 mm
COc1ccc(C2C(C#N)=C(N)N=C3Sc4cc(C)ccc4N32)cc1OC,5000 µg/mL,-,15 mm
O=C(CN1CCN(c2ccccc2O)CC1)N1c2ccccc2Sc2ccccc21,0.1 µg/mL,-,0 mm
Cc1ccc2c(c1)sc1nc(=O)cc(C(=O)NNc3ccc(Cl)cc3)n12,5000 µg/mL,-,4 mm
Cc1cccc(Nc2ccc(N)c3nc[nH]c(=O)c23)c1,1000 µg/mL,ATCC 10231,0 mm
CC(C)=CCCC(C)CCO,1706 µg/disc,Clinical isolates,<14 mm
Nc1ccc(Nc2ccc(Cl)cc2)c2c(=O)[nH]cnc12,1000 µg/mL,ATCC 10231,0 mm
COc1c(N2CC3CCCNC3C2)c(F)cc2c(=O)c(C(=O)[O-])cn(C3CC3)c12.[Cl][Co+].c1c[nH]cn1,100 µM,-,15 mm